Pooled drug test results. Numbers come from NIAID ChemDB, via PubChem.

Shared fields: cytotoxicity tests; endpoint: CC50

Lines come from different laboratories, so protocols vary. CCn: concentration that lowers growth or viability of the cells by n%. An empty or dashed field is not shown.

{"SMILES": "CCCN(Cc1cccc(OCCCCCC(=O)O)c1)C(=O)c1ccc(-c2ccc3c(c2)OCO3)cc1", "cells": "RAJI", "result": ">20 µM"}
{"SMILES": "O=C(NCCc1ccc2c(n1)NCCC2)Nc1c(Cl)cccc1Cl", "cells": "PBMC", "result": "50 µM"}
{"SMILES": "S=C(NCCc1ccccc1)Nc1ccc2c(c1)Cc1cc(Br)ccc1-2", "cells": "Ava5-EG(delta4AB)SEAP", "read by": "MTS", "result": ">1 µM"}
{"SMILES": "O=c1c(-c2ccccc2C(F)(F)F)c(O)c2cccnc2n1O", "cells": "HeLa", "result": "<100 µM"}
{"SMILES": "CCCCNC(=S)Nc1cccc(OCCCCCc2ccccc2)c1", "cells": "Ava5-EG(delta4AB)SEAP", "read by": "MTS", "result": ">1 µM"}
{"SMILES": "CCOC(=O)C1=C(CN2CC(F)(F)[C@@H]3[C@H]2CON3C[C@@H](O)C(C)(C)C(=O)O)NC(c2nccs2)=N[C@H]1c1cccc(F)c1C", "cells": "HepG2.2.15", "read by": "WST / absorbance", "result": "88.7 µM"}
{"SMILES": "CC(C)C[C@@H]1NC(=O)[C@H](Cc2c[nH]c3ccccc23)NC(=O)[C@@H](CCCN=C(N)N)NC(=O)[C@H](CC(N)=O)NC(=O)[C@H](C(C)C)NC(=O)[C@@H](CC(C)C)NC1=O", "cells": "Lung carcinoma cells", "read by": "MTT", "result": ">30 µM"}
{"SMILES": "NCc1cccc(-c2cccc(-c3cc(=O)n(O)c4ncccc34)c2)c1", "cells": "HeLa", "result": "<100 µM"}
{"SMILES": "CCC(C)[C@@H]1NC(=O)[C@@H](C(C)C)NC(=O)[C@H](CC(C)C)NC(=O)[C@H](Cc2c[nH]c3ccccc23)NC(=O)CNC(=O)[C@H](CC(N)=O)NC1=O", "cells": "Colorectal carcinoma cells", "read by": "MTT", "result": ">30 µM"}
{"SMILES": "O=C(Nc1ccc(C(F)(F)F)cc1)Nc1ccc2c(c1)CCC2", "cells": "PBMC", "result": "2 µM"}
{"SMILES": "CC(C)C[C@@H]1NC(=O)[C@H](Cc2c[nH]c3ccccc23)NC(=O)[C@@H](CCCCN)NC(=O)[C@H](CC(C)C)NC(=O)[C@H](C(C)C)NC(=O)[C@@H](CC(C)C)NC1=O", "cells": "Lung carcinoma cells", "read by": "MTT", "result": ">30 µM"}
{"SMILES": "O=C(NCCc1ccc2c(n1)NCCC2)N1Cc2ccccc2C1", "cells": "PBMC", "result": "50 µM"}
{"SMILES": "NC(=S)Nc1cccc(OCCCCCNc2ccccc2C2CCCCC2)c1", "cells": "Ava5-EG(delta4AB)SEAP", "read by": "MTS", "result": ">1 µM"}
{"SMILES": "CC(C)N(Cc1cccc(OCCCCCC(=O)OC(=O)O)c1)C(=O)c1ccc(-c2cccc(Br)c2)cc1", "cells": "RAJI", "result": ">20 µM"}
{"SMILES": "CC(C)C[C@@H]1NC(=O)[C@H](Cc2c[nH]c3ccccc23)NC(=O)[C@@H](C)NC(=O)[C@H](CCCCN)NC(=O)[C@H](C(C)C)NC(=O)[C@@H](CC(C)C)NC1=O", "cells": "Lung carcinoma cells", "read by": "MTT", "result": ">30 µM"}
{"SMILES": "CC(C)N(Cc1cccc(OCCCCCC(=O)OC(=O)O)c1)C(=O)c1ccc(-c2ccc3ccccc3c2)cc1", "cells": "RAJI", "result": ">20 µM"}
{"SMILES": "O=C(NCCc1ccc2c(n1)NCCC2)Nc1ccsc1", "cells": "PBMC", "result": "50 µM"}
{"SMILES": "COc1ccc(C(O)C(Br)N=[N+]=[N-])cc1OC", "cells": "RAJI", "result": "<13.5 µM"}
{"SMILES": "CS(=O)(=O)NCc1ccc(-c2cc(=O)n(O)c3ncccc23)cc1", "cells": "HeLa", "result": "<100 µM"}
{"SMILES": "O=C(NCCc1cccc(-n2ccnc2)n1)NCc1ccccc1Cl", "cells": "PBMC", "result": "50 µM"}
{"SMILES": "NC(=S)Nc1cccc(OCCCCCOc2cccc(Cc3ccccc3)c2)c1", "cells": "Ava5-EG(delta4AB)SEAP", "read by": "MTS", "result": ">1 µM"}
{"SMILES": "CCOC(=O)C1=C(CN2CC(F)(F)[C@@H]3[C@H]2CON3C[C@H](O)C(CC)(CC)C(=O)O)NC(c2nccs2)=N[C@H]1c1cccc(F)c1C", "cells": "HepG2.2.15", "read by": "WST / absorbance", "result": ">25 µM"}
{"SMILES": "S=C(Nc1cccc(OCCCCCOc2ccc(-c3ccccc3)cc2)c1)N1CCCCC1", "cells": "Ava5-EG(delta4AB)SEAP", "read by": "MTS", "result": ">1 µM"}
{"SMILES": "[2H][C@@]1(c2cccc(F)c2C)N=C(c2nccs2)NC(CN2CC(F)(F)[C@@H]3[C@H]2CON3C[C@H](O)C(C)(C)C(=O)O)=C1C(=O)OCC", "cells": "HepG2.2.15", "read by": "WST / absorbance", "result": "100 µM"}
{"SMILES": "CNC(=O)c1cccc(-c2cc(=O)n(O)c3ncccc23)c1", "cells": "HeLa", "result": "<100 µM"}
{"SMILES": "NC(=S)Nc1cccc(NCCCCCCc2ccccc2)c1", "cells": "Ava5-EG(delta4AB)SEAP", "read by": "MTS", "result": ">1 µM"}
{"SMILES": "CCOC(=O)C1=C(CN2CC(F)(F)[C@@H]3[C@H]2CON3C[C@@H](F)CCC(C)(C)C(=O)O)NC(c2nccs2)=N[C@H]1c1cccc(F)c1C", "cells": "HepG2.2.15", "read by": "WST / absorbance", "result": "44 µM"}

The first 3 rows once more:

SMILES	cells	read by	result
CCCN(Cc1cccc(OCCCCCC(=O)O)c1)C(=O)c1ccc(-c2ccc3c(c2)OCO3)cc1	RAJI	-	>20 µM
O=C(NCCc1ccc2c(n1)NCCC2)Nc1c(Cl)cccc1Cl	PBMC	-	50 µM
S=C(NCCc1ccccc1)Nc1ccc2c(c1)Cc1cc(Br)ccc1-2	Ava5-EG(delta4AB)SEAP	MTS	>1 µM